Results of unrelated studies side by side (data: NIAID ChemDB).

All rows: cytotoxicity tests; cell line: PBMC; endpoint: CC50

An empty or dashed field is not shown.

compound,read by,result
COc1ccc2nc(Cl)c(/C=C/C(=O)c3ccc(Cl)s3)cc2c1,MTS,20.8 µM
CN(CCCN)CCCNc1nc(-c2cccs2)cc(-c2cccs2)n1,,100 µM
Cc1nnc2c3ccccc3c(N3CCc4cccnc4C3)nn12,,3.19 µM
COc1ccc2nc(Cl)c(/C=C/C(=O)c3c4ccccc4cc4ccccc34)cc2c1,MTS,10.2 µM
CN(C)CCNc1nc(-c2cccs2)cc(-c2cccs2)n1,,10 µM
Cc1nnc2c3ccccc3c(N3CCC4CCCCC4C3)nn12,,51.9 µM
O=C(NCCc1ccccc1)NCCc1cccc(-n2ccnc2)n1,,50 µM
Nc1nc(=O)n([C@H]2O[C@@H](CO)[C@H](O)C2(F)F)cc1Cl,,>100 µM
OCCN(CCO)c1nc(-c2cccs2)cc(-c2cc3ccccc3s2)n1,,100 µM
O=c1[nH]c(=O)n([C@H]2O[C@@H](CO)[C@H](O)C2(F)F)cc1Br,,>100 µM
O=C(NCCc1ccc2c(n1)NCCC2)Nc1ccc(OCCN2CCOCC2)cc1C(F)(F)F,,50 µM
O=c1ccn([C@H]2O[C@@H](CO)[C@H](O)C2(F)F)c(=O)[nH]1,,>100 µM
Nc1ncnc2c1ncn2[C@@H]1C=C(CO)[C@@H](O)[C@H]1O,,9.99 µM
CN(C(=O)NCCc1ccc2c(n1)NCCC2)c1ccccc1,,50 µM
COc1ccc2nc(Cl)c(/C=C/C(=O)c3cc(C)sc3C)cc2c1,MTS,3.9 µM
Nc1cccc(CCNC(=O)NCc2ccc(Cl)c(Cl)c2)n1,,50 µM
O=c1[nH]c(=O)n([C@H]2O[C@@H](CO)[C@H](O)C2(F)F)cc1I,,>100 µM
Cc1csc(C(=O)/C=C/c2cc3cc(C)ccc3nc2Cl)c1,MTS,42.9 µM
COc1cc2c(cc1[N+](=O)[O-])CN(c1nn3c(C4CC4)nnc3c3ccccc13)CC2,,63.4 µM
Cc1cccc(NC(=O)NCCc2ccc3c(n2)NCCC3)n1,,7.4 µM
COC(=O)c1ccc2c(c1)CN(c1nn3c(C)nnc3c3ccccc13)CC2,,6.72 µM
O=C(NCCc1ccc2c(n1)NCCC2)Nc1ccc(-c2ccccc2)cc1,,6.2 µM
OCCNc1nc(-c2cccs2)cc(-c2cccs2)n1,,100 µM
Nc1cc2c(cc1F)CN(c1nn3c(C4CC4)nnc3c3ccccc13)CC2,,1.73 µM
Nc1nccc2c1ncn2[C@@H]1O[C@H](CO)[C@@H](O)[C@H]1O,,9.98 µM
CC(=O)Nc1ccc2c(c1)CN(c1nn3c(C4CC4)nnc3c3ccccc13)CC2,,0.25 µM
O=C(NCCc1ccc2c(n1)NCCC2)NC1CCOCC1,,50 µM
CN(C)CCSc1nccc(-c2ccc(-c3ccnc(SCCN(C)C)n3)s2)n1,,10 µM
O=C(NCCc1ccc2c(n1)NCCC2)Nc1ccc(Cl)cc1C(F)(F)F,,25 µM
NCCNc1nc(-c2cccs2)cc(-c2cccs2)n1,,10 µM

Repeating the final 2 entries:

compound,read by,result
O=C(NCCc1ccc2c(n1)NCCC2)Nc1ccc(Cl)cc1C(F)(F)F,,25 µM
NCCNc1nc(-c2cccs2)cc(-c2cccs2)n1,,10 µM

Lines come from different laboratories, so protocols vary. CCn is the concentration with n% toxicity to the cells.